Measurements: publication PMC9061721

Key:
[1] = molecular target: A/Hong Kong/01/1968 (H3N2) HA (influenza A virus A/Hong Kong/01/1968 (H3N2)) (UniProt Q91MA7); test: ELISA
[2] = molecular target: SC/09 H1N1 HA protein (A/Sichuan/01/2009) (influenza A virus A/Sichuan/01/2009 (H1N1)); test: ELISA

Substance: MEDI8852
- EC50 [1]: 0.0904 µg/mL
- EC50 [2]: 0.0648 µg/mL
